Measured values from several laboratories, pooled; numbers as filed in NIAID ChemDB.

Shared fields: growth or infection tests; agent: Mycobacterium tuberculosis

Two numbers with a dash give a range or band.

structure | strain | method | measure | dose | result
CC1=C(C(=O)Nc2ccc([N+](=O)[O-])cc2)C(c2ccc(Cl)cc2)C(C(=O)Nc2ccc([N+](=O)[O-])cc2)=C(C)N1 | H37Rv |  | inhibition | 2.5 µg/mL | 62%
COc1cc(C(=O)N/N=C(\N)SCc2cccc(Cl)c2)cc(OC)c1OC | H37Rv |  | MIC |  | >100 µg/mL
Cc1nnsc1C(=O)NCc1c(F)cccc1Cl | H37Rv | resazurin | inhibition | 6.25 µg/mL | 6%
O=C(/C=C/c1ccccc1)c1cc(I)ccc1O | H37Rv |  | MIC |  | >12.5 µg/mL
CS/C(N)=N/NC(=O)c1ccc([N+](=O)[O-])cc1 | H37Rv |  | MIC |  | >100 µg/mL
Cn1c(=O)c2c(nc3n2C(CCl)CO3)n(C)c1=O | H37Rv | resazurin | inhibition | 6.25 µg/mL | 5%
O=C1CCCCC1C(Nc1nc(-c2ccc(O)cc2)cs1)c1cccc(Cl)c1 | H37Rv | broth dilution / agar / visual reading | MIC |  | 50 µg/mL
O=C(Nc1nncs1)c1ccncc1 | H37Rv | resazurin | inhibition | 6.25 µg/mL | 3%
O=C1CCCCC1C(Nc1nc(-c2ccc(O)cc2)cs1)c1ccc(O)cc1 | H37Rv | broth dilution / agar / visual reading | MIC |  | 6.25 µg/mL
COc1ccc(Nc2nnc(-c3ccc(NC(=S)Nc4ccccc4)cc3)s2)cc1 | H37Rv |  | MIC |  | >6.25 µg/mL
COc1c(C(C)=O)cc(N)c2ncccc12 | H37Rv |  | MIC |  | >6.25 µg/mL
COc1ccc(C2C(C(=O)Nc3ccc(F)c(Cl)c3)=C(C)NC(C)=C2C(=O)Nc2ccc(F)c(Cl)c2)cc1 | H37Rv |  | MIC |  | >6.25 µg/mL
COC(=O)c1c(C(=O)OC)c2cc(C(=O)OC(C)C)ccn2c1C(=O)c1ccc(Br)cc1 | H37Rv | resazurin | MIC |  | 1 µg/mL
CN(C)/N=C/C=C1\N=C(c2ccccc2)OC1=O | H37Rv | BACTEC | inhibition | 12.5 µg/mL | 5%
CC(=O)Nc1ccc(/C=N/NC(N)=S)cc1Cl |  |  | MIC |  | <6.25 µg/mL
O=[N+]([O-])c1cccc2c(C3CCCC3)cc(C3CCCC3)nc12 | H37Rv |  | inhibition | 6.25 µg/mL | 96%
COc1ccc(/C=C/C(=O)c2ccc(OC)cc2O)cc1 | H37Rv |  | MIC |  | >12.5 µg/mL
CC[C@]1(O)C[C@H]2CN(CCC3=C(NC4CC=CC=C34)[C@@](C(=O)OC)(c3cc4c(cc3OC)N(C)[C@@H]3[C@]45CCN4CC=C[C@@](CC)(C(OC(=O)CCCCCCCCCCCN6C(=O)C=CC6=O)[C@]3(O)C(=O)OC)[C@H]45)C2)C1 | H37Rv | BACTEC | MIC bound |  | >12.5 µg/mL
CCc1ccnc2c(N)cc(C(C)=O)c(OC3CCCC3)c12 | H37Rv |  | inhibition | 6.25 µg/mL | 47%
CC1COc2c(N3CCN(C)CC3)c(F)cc3c(=O)c(C(=O)O)cn1c23 |  |  | MIC |  | 0.5–2 µg/mL
COc1cc(C2C(C(=O)Nc3ccc(F)cc3)=C(C)NC(C)=C2C(=O)Nc2ccc(F)cc2)cc(OC)c1OC | H37Rv |  | MIC |  | >6.25 µg/mL
CC(=O)Nc1ccc(/C=N/NC(N)=S)cc1F | Ethambutol-resistant |  | MIC |  | 0.2 µg/mL
CC12C=NNC1(C)C(=O)C1(C)CN=NC1(C)C2=O | H37Rv | resazurin | MIC bound |  | >6.25 µg/mL
O=C1CCCCC1C(Nc1nc(-c2ccc(O)cc2)cs1)c1ccccc1 | H37Rv | broth dilution / agar / visual reading | MIC |  | 50 µg/mL
COc1c(C(C)=O)cc([N+](=O)[O-])c2nc(C(C)C)ccc12 | H37Rv |  | inhibition | 6.25 µg/mL | 0%
COc1ccccc1/C=C/C(=O)c1ccccc1O | H37Rv |  | MIC |  | >12.5 µg/mL
COc1nc2ccc(Br)cc2cc1[C@@H](c1ccccc1)[C@@](O)(CCN(C)C)c1cccc2ccccc12 | H37Rv | resazurin | MIC90 |  | 0.0625 µg/mL
Cc1ccc2c(c1)nc1cc(Nc3ccc(Cl)cc3)c(=NC3CCCCCCC3)cc-1n2-c1ccc(Cl)cc1 | H37Rv (SM-resistant) |  | MIC |  | 0.1 µg/mL
Fc1ccc(Nc2nnc(-c3ccc(NC(=S)Nc4ccccc4)cc3)s2)cc1 | H37Rv |  | EC50 |  | >6.25 µg/mL
CC1=C(C(=O)Nc2ccccc2Cl)C(c2ccccc2S)C(C(=O)Nc2ccccc2Cl)=C(C)N1 | H37Rv |  | inhibition | 2.5 µg/mL | 10%
COc1cc(OC)c2c(=O)cc(-c3ccc(OC)c(I)c3)oc2c1 | H37Rv |  | MIC |  | >12.5 µg/mL
O=c1oc2c(Cl)cc(Cl)cc2cc1-c1cn2ccccc2n1 | H37Rv | BACTEC | inhibition | 6.25 µg/mL | 10%
CC1=C(C(=O)Nc2cc(C)ccc2C)C(c2cccc(Br)c2)C(C(=O)Nc2cc(C)ccc2C)=C(C)N1 | H37Rv |  | MIC |  | >6.25 µg/mL
CC1=C(C(=O)Nc2ccc(Cl)cc2)C(c2cccc([N+](=O)[O-])c2)C(C(=O)Nc2ccc(Cl)cc2)=C(C)N1 | H37Rv |  | EC50 |  | >2.5 µg/mL
O=c1cc(-c2ccc(Cl)cc2)oc2ccccc12 | H37Rv |  | MIC |  | >12.5 µg/mL
COc1ccc(C2C(C(=O)Nc3ccccc3F)=C(C)NC(C)=C2C(=O)Nc2ccccc2F)cc1OC | H37Rv |  | MIC |  | >6.25 µg/mL
COc1c(C(C)=O)cc(N)c2nc(C(C)(C)C)ccc12 | H37Rv |  | inhibition | 6.25 µg/mL | 0%
CO[C@H]1/C=C/O[C@@]2(C)Oc3c(C)c(O)c4c(O)c(c5c(c4c3C2=O)NC2(CCN(CC(C)C)CC2)N=5)=NC(=O)/C(C)=C\C=C\[C@H](C)[C@H](O)[C@@H](C)[C@@H](O)[C@@H](C)[C@H](OC(C)=O)[C@@H]1C |  |  | MIC90 |  | 1.56–10 µg/mL
COc1ccc(-c2csc(NC(c3ccc(Cl)cc3)C3CCCCC3=O)n2)cc1 | H37Rv | broth dilution / agar / visual reading | MIC |  | 50 µg/mL
CO[C@H]1/C=C/O[C@@]2(C)Oc3c(C)c(O)c4c(O)c(c(/C=N/N5CCN(C)CC5)c(O)c4c3C2=O)NC(=O)/C(C)=C\C=C\[C@H](C)[C@H](O)[C@@H](C)[C@@H](O)[C@@H](C)[C@H](OC(C)=O)[C@@H]1C | MC8 |  | MIC |  | <2 µg/mL
COc1ccc(/C=C/C(=O)c2ccc(Br)cc2O)cc1 | H37Rv |  | MIC |  | >12.5 µg/mL
CCCCOc1c(C(C)=O)cc(N)c2nccc(CC)c12 | H37Rv |  | MIC |  | >6.25 µg/mL
CCOc1c(N=Nc2ccccc2OC)c(C)nn1C(=S)S | H37Rv | BACTEC | inhibition | 12.5 µg/mL | 14%
Cc1ccc(-c2csc(NC(c3cccc([N+](=O)[O-])c3)C3CCCCC3=O)n2)cc1 | H37Rv | broth dilution / agar / visual reading | MIC |  | 50 µg/mL
C=CC12CN(C)C3C4COC(CC41)C1(C(=O)Nc4ccccc41)C32.CC(C)=O | H37Rv | BACTEC | MIC bound |  | >12.5 µg/mL
COc1cc(OC)c2c(=O)cc(-c3ccc(O)cc3)oc2c1 | H37Rv |  | MIC |  | >12.5 µg/mL
O=[N+]([O-])c1ccc(N/N=C/c2ccc(O)c(S(=O)(=O)O)c2)nc1 | H37Rv | BACTEC | MIC bound |  | >12.5 µg/mL
CCCCS/C(N)=N/NC(=O)c1ccccc1 | H37Rv |  | MIC |  | >100 µg/mL
c1ccc(-c2nc(N=C3N=c4ccccc4=N3)[nH]c2-c2ccccn2)nc1 | H37Rv | BACTEC | MIC bound |  | ≤12.5 µg/mL
CC(=O)c1cc([N+](=O)[O-])c2ncccc2c1C1CCCCC1 | H37Rv |  | MIC |  | >6.25 µg/mL
O=c1oc2ccccc2cc1-c1cn2cc(Br)ccc2n1 | H37Rv | BACTEC | inhibition | 6.25 µg/mL | 0%
O=C1CCCCC1C(Nc1nc(-c2ccc(O)cc2)cs1)c1cccc([N+](=O)[O-])c1 | H37Rv | broth dilution / agar / visual reading | MIC |  | 50 µg/mL
CC1COc2c(N3CCN(C)CC3)c(F)cc3c(=O)c(C(=O)O)cn1c23 | 484 (streptomycin isoniazid rifampicin-resistant) |  | MIC |  | 4 µg/mL
CC(/C=C/C(O)=C1/C(=O)CNC1=O)=C\[C@@H](C)[C@H]1O[C@]2(C)O[C@@H](C(=O)[C@@H]3O[C@@]32C)[C@@H]1C | H37Rv | BACTEC | MIC |  | >4 µg/mL
CC1=C(C(=O)Nc2cccc([N+](=O)[O-])c2)C(c2ccccc2)C(C(=O)Nc2cccc([N+](=O)[O-])c2)=C(C)N1 | H37Rv |  | EC50 |  | <2.5 µg/mL
N/C(=N\NC(=O)c1ccccc1)SCc1cccc(Cl)c1 | H37Rv |  | MIC |  | >100 µg/mL
CCc1nn(CCCN2CCN(c3cccc(Cl)c3)CC2)c(=O)n1CC.Cl | H37Rv | BACTEC | MIC bound |  | >12.5 µg/mL
NC(=O)c1cnccn1 | Isolate 98-31 |  | MIC |  | 900 µg/mL
COc1ccc2c(=O)cc(-c3cccc([N+](=O)[O-])c3)oc2c1 | H37Rv |  | MIC |  | >12.5 µg/mL
CC1(C)Cc2[nH]c3ccccc3c(=O)c2-c2nc3ccccc3c(=O)n21 | H37Rv | BACTEC | MIC bound |  | >12.5 µg/mL
CS/C(N)=N/NC(=O)c1ccccc1 | H37Rv |  | MIC |  | >100 µg/mL
S=C(Nc1ccccc1)Nc1ccc(-c2nnc(Nc3ccc(Cl)cc3)s2)cc1 | H37Rv |  | MIC |  | >6.25 µg/mL
CC(C)(C)c1cc(C(C)(C)C)c2cccc([N+](=O)[O-])c2n1 | H37Rv |  | MIC |  | >6.25 µg/mL
C=CCS/C(N)=N/NC(=O)c1ccc(Cl)cc1Cl | H37Rv |  | MIC |  | >100 µg/mL
CN1CCC23c4c5cc(-c6cc7c8c(c6O)OC6C(O)C=CC9C(C7)N(C)CCC896)c(O)c4OC2C(O)C=CC3C1C5.CS(=O)(=O)O | H37Rv | BACTEC | MIC bound |  | >12.5 µg/mL
CCNc1nnc(-c2ccc(NC(=S)Nc3ccccc3)cc2)s1 | H37Rv |  | MIC |  | >6.25 µg/mL
COc1ccc(C(=O)N/N=C(\N)SCc2cccc(Cl)c2)cc1 | H37Rv |  | MIC |  | >100 µg/mL
Cn1cc(NC(=O)c2cc(NC(=O)c3cc(NC=O)cn3C)cn2C)cc1C(=O)NCCC(=N)N | INH-r |  | MIC |  | 12.8 µg/mL
Cc1ccn2cc(-c3cc4cc(Br)cc(Br)c4oc3=O)nc2c1 | H37Rv | BACTEC | inhibition | 6.25 µg/mL | 17%
CC1=C(C(=O)Nc2ccccc2C)C(c2cccc(Cl)c2)C(C(=O)Nc2ccccc2C)=C(C)N1 | H37Rv |  | MIC |  | >6.25 µg/mL
O=C(/C=C/c1ccccn1)c1ccccn1 | H37Rv |  | MIC |  | >12.5 µg/mL
C1CSCCSCCSCCSCCSCCS1 | H37Rv | BACTEC | MIC bound |  | >12.5 µg/mL
CC1=C(C(=O)Nc2cccc(Cl)c2)C(c2ccc(Cl)cc2)C(C(=O)Nc2cccc(Cl)c2)=C(C)N1 | H37Rv |  | MIC |  | >12.5 µg/mL
S=C(NCCNC(=S)SSC(=S)NNc1ccccc1)SSC(=S)NNc1ccccc1 | H37Rv | BACTEC | MIC |  | 16 µg/mL
CC(=O)NC[C@H]1CN(c2ccc(N3CCOCC3)c(F)c2)C(=O)O1 | 42 isolates |  | MIC90 |  | 0.5 µg/mL
COc1cc([N+](=O)[O-])cc2cc(-c3cn4ccccc4n3)c(=O)oc12 | H37Rv | BACTEC | inhibition | 6.25 µg/mL | 0%
C/C=C1\CN2CCC1CC2[C@@H](O)c1ccnc2ccc(O)cc12 | H37Rv | resazurin | MIC bound |  | >6.25 µg/mL
NNC(=O)c1ccncc1 | 41494 |  | MIC |  | ≥0.2 µg/mL
S=C(SCc1cc(Cl)cc2c1OCOC2)N1CCSCC1 | H37Rv | BACTEC | MIC bound |  | >128 µg/mL
O=[N+]([O-])c1cccc2c(C3CCCCC3)cc(C3CCCCC3)nc12 | Ethambutol-resistant |  | MIC |  | 6.25 µg/mL
CC1=NN(C(=O)CC(=O)Nc2cccc(Cl)c2)C(=O)C1N=Nc1ccc(S(=O)(=O)c2ccc(N=NC3C(=O)N(C(=O)CC(=O)Nc4cccc(Cl)c4)N=C3C)cc2)cc1 | H37Rv | BACTEC | MIC bound |  | >12.5 µg/mL
C[C@@H]1CN(c2c(F)c(N)c3c(=O)c(C(=O)O)cn(C4CC4)c3c2F)C[C@H](C)N1 |  |  | MIC90 |  | 0.5 µg/mL

Repeating the final 10 entries:

structure	strain	method	measure	dose	result
CC1=C(C(=O)Nc2cccc(Cl)c2)C(c2ccc(Cl)cc2)C(C(=O)Nc2cccc(Cl)c2)=C(C)N1	H37Rv		MIC		>12.5 µg/mL
S=C(NCCNC(=S)SSC(=S)NNc1ccccc1)SSC(=S)NNc1ccccc1	H37Rv	BACTEC	MIC		16 µg/mL
CC(=O)NC[C@H]1CN(c2ccc(N3CCOCC3)c(F)c2)C(=O)O1	42 isolates		MIC90		0.5 µg/mL
COc1cc([N+](=O)[O-])cc2cc(-c3cn4ccccc4n3)c(=O)oc12	H37Rv	BACTEC	inhibition	6.25 µg/mL	0%
C/C=C1\CN2CCC1CC2[C@@H](O)c1ccnc2ccc(O)cc12	H37Rv	resazurin	MIC bound		>6.25 µg/mL
NNC(=O)c1ccncc1	41494		MIC		≥0.2 µg/mL
S=C(SCc1cc(Cl)cc2c1OCOC2)N1CCSCC1	H37Rv	BACTEC	MIC bound		>128 µg/mL
O=[N+]([O-])c1cccc2c(C3CCCCC3)cc(C3CCCCC3)nc12	Ethambutol-resistant		MIC		6.25 µg/mL
CC1=NN(C(=O)CC(=O)Nc2cccc(Cl)c2)C(=O)C1N=Nc1ccc(S(=O)(=O)c2ccc(N=NC3C(=O)N(C(=O)CC(=O)Nc4cccc(Cl)c4)N=C3C)cc2)cc1	H37Rv	BACTEC	MIC bound		>12.5 µg/mL
C[C@@H]1CN(c2c(F)c(N)c3c(=O)c(C(=O)O)cn(C4CC4)c3c2F)C[C@H](C)N1			MIC90		0.5 µg/mL

A number after MIC or MFC names an inhibition level or a share of isolates. Lines come from different laboratories, so protocols vary. MIC bound comes from a single tested concentration. ECn is the concentration giving n% inhibition of infection, replication or growth. Inhibition is in % at the dose shown (toxicity tests: loss of growth or viability). An empty or dashed field is not shown.